Pooled drug test results. Numbers come from NIAID ChemDB, via PubChem.

Shared fields: tests in culture; organism: Candida albicans; read-out: MIC

a–b is a range or a potency band. Blank or dashed fields: not listed here. Conditions beyond the fields shown may differ between rows.

| compound | strain or isolate | result |
|---|---|---|
| Clc1cc2nc(C3CCNCC3)n(Cc3cccnc3)c2cc1Cl | ATCC 10231 | >100 µM |
| CCC(C)C(C)C(=O)NC(Cc1ccc(O)cc1)C(C)=O | MUCC 29 | 12.5 µg/mL |
| C/C(=C\c1c[nH]c2ccccc12)[N+](=O)[O-] | - | 25 µg/mL |
| COc1cc(O)c2c(c1)C(=O)c1c(cc3c(c1O)-c1c(cc(C)c(C(=O)NC(C)C(=O)O)c1O)[C@H](OC1OC(C)C(O)C1O)[C@H]3O)C2=O | A9540 | >100 µg/mL |
| C[C@H]1[C@H](O)[C@@H](C)/C=C/C=C/C=C/C=C/C=C/C=C/C=C/[C@H](O[C@@H]2O[C@H](C)[C@@H](O)[C@H](N)[C@@H]2O)C[C@@H]2O[C@](O)(C[C@@H](O)C[C@@H](O)CC[C@H](O)[C@@H](O)C[C@@H](O)CC(=O)O[C@H]1C)C[C@H](O)[C@H]2C(=O)O | ATCC 90028 | 0.03 µg/mL |
| CCCCCCCCC/C=C\CCCCC(=O)O | - | 49 µg/mL |
| Cc1c(N2CC3CCC(C)(NC(=O)[C@H](C)N)C3C2)c(F)cn2c(=O)c(C(=O)O)cc(C3CC3)c12.Cl | CCH442 | >100 µg/mL |
| Clc1ccc(CC[C@H](Cn2ccnc2)Sc2c(Cl)cccc2Cl)cc1 | - | 6 µg/mL |
| CCCCCCCCCCCCCCCCCCNC1CCc2c(O)cccc2C1 | - | 64 µM |
| CCCCCCCCCCCCCCCC(=O)NC1CC(O)C(O)NC(=O)C2C(O)C(C)CN2C(=O)C(C(O)CC(N)=O)NC(=O)C(C(O)C(O)c2ccc(O)c(S(=O)(=O)O)c2)NC(=O)C2CC(O)CN2C(=O)C(C(C)O)NC1=O | FP633 | 0.2 µg/mL |
| C=CC(O)C#CC#CC(O)/C=C\C(O)CCCCCC | 105 | 200–400 µg/mL |
| Fc1ccc(Cn2c(C3CCNCC3)nc3cc(Cl)c(Cl)cc32)cc1 | ATCC 10231 | >100 µM |
| CC1=CCC[C@@H](C)C1(C)CC/C(C)=C/CCC(CCCc1ccoc1)COS(=O)(=O)[O-] | ATCC 10231 | >100 µg/mL |
| CC1CCCN(CC(C)Cc2ccc(C(C)(C)C)cc2)C1 | 29-3-101 | 56.7 µM |
| CCC(=O)NCC(C)=O | MUCC 29 | 25 µg/mL |
| CC(CCC(=O)NCCC[N+](C)(C)CCCS(=O)(=O)[O-])C1CCC2C3C(C[C@H](O)C12C)C1(C)CC[C@@H](O)C[C@H]1C[C@H]3O | - | >500 µg/mL |
| CCCCCCCCCCCC(=O)OCC(O)COC(=O)CCCCCCCCCCC | - | >1000 µg/mL |
| CC(=O)C(Cc1ccccc1)NC(=O)C(C)Cc1cnc[nH]1 | MUCC 29 | 6 µg/mL |
| CCCCCCCCCNC1CCc2cc(O)ccc2C1 | - | <0.125 µM |
| COc1cc(O)c2c(c1)C(=O)c1c(cc3c(c1O)-c1c(cc(C)c(C(=O)NC(C)C(=O)O)c1O)[C@H](OC1OC(C)CC(O)C1O)[C@H]3O)C2=O | A9540 | 3.1 µg/mL |
| c1ccc(-c2ccc(C(c3ccccc3)n3ccnc3)cc2)cc1 | 81 strains | 3.51 µg/mL |
| O=C(O)CC[N+](=O)[O-] | ATCC 10231 | >100 µg/mL |
| O=c1c2ccccc2[se]n1-c1ccccn1 | - | >500 µg/mL |
| Cn1c(=[Se])n(CCc2ccccc2)c2ccccc21 | - | 800 µg/mL |
| CC1/C=C/C=C/C=C/C=C/C=C/C(O)C(C)C(O)CC(O)CC(O)CCCC(O)CC(O)C(C)C(=O)OC1C | - | 10 µg/mL |
| CN[C@@H]1[C@H](O)[C@@H](O)[C@H](O[C@H]2c3cc(C)c(C(=O)N[C@H](C)C(=O)O)c(O)c3-c3c(cc4c(c3O)C(=O)c3cc(OC)cc(O)c3C4=O)[C@@H]2O)O[C@@H]1C | A9540 | 3.1 µg/mL |
| Cn1cc(/C=C/[N+](=O)[O-])c2ccccc21 | - | 400 µg/mL |
| O=C1CCC(c2ccccc2)C(=O)N1CCCCN1CCN(c2ccc(F)cc2)CC1 | DSM 1386 | >100 µM |
| CN1CCN(c2c(F)cn3c(=O)c(C(=O)O)cc(-c4ccccc4)c3c2F)CC1.Cl | CCH442 | >100 µg/mL |
| CCCCNC(=O)c1cc(F)ccc1SSc1ccc(F)cc1C(=O)NCCCC | ATCC 2091 | 20 µg/mL |
| O=[N+]([O-])/C=C/c1c(-c2ccccc2)[nH]c2ccccc12 | - | 400 µg/mL |
| CCN1C[C@]2(COC)CC[C@H](OC)[C@]34C1[C@@](O)([C@@H](OC)[C@H]23)[C@@]1(O)C[C@H](OC)C2C[C@@H]4[C@@H]1[C@H]2OC(C)=O | - | 0.25 µg/mL |
| CCn1c(C2CCNCC2)nc2cc(Cl)c(Cl)cc21 | ATCC 10231 | >100 µM |
| Cc1c(N2CC[C@H]([C@@H](C)N)C2)c(F)cn2c(=O)c(C(=O)O)cc(C3CC3)c12 | CCH442 | >100 µg/mL |
| O=C1CCC(c2ccccc2)C(=O)N1CCCN1CCN(c2ncccn2)CC1 | DSM 1386 | >100 µM |
| COc1ccc2nc(Oc3ccccc3)c(C3C(C#N)=C(N)Oc4c3c(=O)oc3ccc(C)cc43)cc2c1 | MTCC 227 | 100 µg/mL |
| Clc1ccccc1C(c1ccccc1)(c1ccccc1)n1ccnc1 | ATCC 2091 | 1.25 µg/mL |
| Cc1ccc(Oc2nc3ccccc3cc2C2C(C#N)=C(N)Oc3c2c(=O)oc2ccccc32)cc1 | MTCC 227 | 500 µg/mL |
| CC(=O)C(C)CCCN=C(N)N[N+](=O)[O-] | MUCC 29 | 12.5 µg/mL |
| COc1ccc2nc(Oc3ccc(C)cc3)c(C3C(C#N)=C(N)Oc4c3c(=O)oc3ccccc43)cc2c1 | MTCC 227 | 1000 µg/mL |
| CC1=C(N2CC[C@@H](ON)C2)C(F)=CN2C(=O)C(C(=O)O)=CC(C3CC3)C12 | CCH442 | >100 µg/mL |
| CCCCCCCCCCCCOC(C)=O | - | >100 µg/mL |
| CNC1C(C)OC(O[C@H]2c3cc(C)c(C(=O)NC(C)C(=O)OC)c(OC4OC(CO)C(O)C(O)C4O)c3-c3c(cc4c(c3O)C(=O)c3cc(OC)cc(O)c3C4=O)[C@@H]2O)C(O)C1OC1OC(CO)C(O)C(O)C1O | A9540 | >100 µg/mL |
| CC(=O)C1CCCN1C(=O)C(C)Cc1ccccc1 | MUCC 29 | 6 µg/mL |
| CC1=CC[C@H]2C(C)(C)CCC[C@]2(C)[C@H]1C/C=C(\C)CCC/C(C)=C/Cc1cc(O)ccc1O | ATCC 10231 | >100 µg/mL |
| c1cc2c[n+](c1)CCCCCCCCCCCCCCc1ccc[n+](c1)CCCCCCCCCCCCC2 | ATCC 10231 | 0.7 µg/mL |
| Cc1c(N2CCC(c3ccccn3)C2)c(F)cn2c(=O)c(C(=O)O)cc(C3CC3)c12 | CCH442 | 0.2 µg/mL |
| CCCCCCCCCCCCN(C)C | - | 109 µg/mL |
| COc1cc(O)c2c(c1)C(=O)c1c(cc3c(c1O)-c1c(cc(C)c(C(=O)N[C@H](C)C(=O)O)c1O)[C@H](O[C@@H]1O[C@H](C)[C@H](N)[C@H](O[C@@H]4OC[C@@H](O)[C@H](O)[C@@H]4O)[C@H]1O)[C@H]3O)C2=O | A9540 | 3.1 µg/mL |
| C/C=C/C(C)=C/C(C)C(=O)CC1CC(CC(N)=O)CC(=O)O1 | IFO 1594 | >100 µg/mL |
| Cc1c(N)nc([C@H](CC(N)=O)NC[C@H](N)C(N)=O)nc1C(=O)N[C@H](C(=O)N[C@H](C)[C@@H](O)[C@H](C)C(=O)N[C@H](C(=O)NCCc1nc(-c2nc(C(=O)NCCC[S+](C)C)cs2)cs1)[C@@H](C)O)C(O[C@@H]1O[C@@H](CO)[C@@H](O)[C@H](O)[C@@H]1O[C@H]1O[C@H](CO)[C@@H](O)[C@H](OC(N)=O)[C@@H]1O)c1cnc[nH]1 | Isolate 94-77 | 0.39 µg/mL |
| CN1c2ccccc2N(CCc2ccccc2)C1C(=S)Nc1ccccc1 | - | 800 µg/mL |
| CCCCCCCCCCCCO | - | 135 µg/mL |
| COCCN1CN(CCc2ccccc2)c2ccccc21 | - | 400 µg/mL |
| Clc1cc2nc(C3CCNCC3)n(Cc3ccncc3)c2cc1Cl | ATCC 10231 | >100 µM |
| C[C@H]1[C@H](O)[C@@H](C)/C=C/C=C/C=C/C=C/C=C/C=C/C=C/[C@H](O[C@@H]2O[C@H](C)[C@@H](O)[C@H](N)[C@@H]2O)C[C@@H]2O[C@](O)(C[C@@H](O)C[C@@H](O)CC[C@H](O)[C@@H](O)C[C@@H](O)CC(=O)O[C@H]1C)C[C@H](O)[C@H]2C(=O)O | ATCC 10231 | 1.6 µg/mL |
| CC(=O)CNC(=O)C(Cc1ccccc1)NC(=O)C(Cc1ccc(O)cc1)NC(=O)C(C)C(C)C | MUCC 29 | 6 µg/mL |
| C[C@H]1COc2c(N3CCC(O)C3)c(F)cn3c(=O)c(C(=O)O)cc1c23 | CCH442 | >100 µg/mL |
| C[C@@H]1[C@H](O)[C@@H](C)/C=C/C=C/C=C/C=C/C=C/C=C/C=C/[C@H](O[C@@H]2O[C@H](C)[C@@H](O)[C@H](N)[C@@H]2O)C[C@@H]2O[C@](O)(C[C@@H](O)C[C@@H](O)[C@H](O)CC[C@@H](O)C[C@@H](O)CC(=O)O[C@H]1C)C[C@H](O)[C@H]2C(=O)O | AY93025 | 1.5 µg/mL |
| CCCCn1sc2c(C(F)(F)F)cccc2c1=O | ATCC 2091 | 40 µg/mL |
| C[C@@H](c1nc(-c2ccc(C#N)cc2)cs1)[C@](O)(Cn1cnnc1)c1ccc(F)cc1F | A14060 | 0.06 µg/mL |
| C/C(=C/c1cn(C)c2ccccc12)[N+](=O)[O-] | - | 400 µg/mL |
| Cc1ccc(Oc2nc3ccc(C)cc3cc2C2C(C#N)=C(N)Oc3c2c(=O)oc2ccc(C)cc32)cc1 | MTCC 227 | 500 µg/mL |
| Clc1ccc(COC(Cn2ccnc2)c2ccc(Cl)cc2Cl)c(Cl)c1 | - | 10 µg/mL |
| Cl.NCCS | MTCC 183 | >1000 µg/mL |
| CCn1cc(C(=O)Nn2c(C)nc3ccc(I)cc3c2=O)c(=O)c2ccc(C)nc21 | - | 20–40 µg/mL |
| c1cc2c[n+](c1)CCCCCCCCCCCCCCc1ccc[n+](c1)CCCCCCCCCCCC2 | ATCC 10231 | 0.7 µg/mL |
| CCn1cc(C(=O)Nn2c(C)nc3ccccc3c2=O)c(=O)c2ccc(C)nc21 | - | >300 µg/mL |
| CCCCCCCCCCNC1CCc2cc(O)ccc2C1 | - | <0.125 µM |
| Cc1c(N2CCC(N(C)C)C2)c(F)cn2c(=O)c(C(=O)O)cc(C3CC3)c12 | CCH442 | >100 µg/mL |
| O=C1CCC(c2ccccc2)C(=O)N1CCCCN1CCN(Cc2ccccc2)CC1 | DSM 1386 | >100 µM |
| Cc1ccc2nc(Oc3ccccc3)c(C3C(C#N)=C(N)Oc4c3c(=O)oc3ccccc43)cc2c1 | MTCC 227 | 500 µg/mL |
| CCCCn1sc2cccc(F)c2c1=O | ATCC 2091 | 10 µg/mL |
| CC(=O)C(Cc1ccccc1)NC(=O)C(C)CC(C)C | MUCC 29 | 6 µg/mL |
| COc1cc(O)c2c(c1)C(=O)c1c(cc3c(c1O)-c1c(cc(C)c(C(=O)NC(C)C(=O)O)c1O)[C@H](OC1OC(C)C(F)CC1OC1OCC(O)C(O)C1O)[C@H]3O)C2=O | A9540 | >100 µg/mL |
| CC(C)(C)n1[se]c2ncccc2c1=O | - | >500 µg/mL |
| CC1=C(N2CCC(NCC(F)(F)F)C2)C(F)=CN2C(=O)C(C(=O)O)=CC(C3CC3)C12 | CCH442 | >100 µg/mL |
| O=C1CCC(c2ccccc2)C(=O)N1 | DSM 1386 | >100 µM |
| c1ccc(CCn2cnc3ccccc32)cc1 | - | 400 µg/mL |
| CC(=O)O.Cc1c(N2CCCNCC2)c(F)cn2c(=O)c(C(=O)O)cc(C3CC3)c12 | CCH442 | >100 µg/mL |
| O=c1c2ccccc2[se]n1-c1cccnc1 | - | >500 µg/mL |

A second listing of 6 rows from above:

compound,strain or isolate,result
O=C1CCC(c2ccccc2)C(=O)N1CCCCN1CCN(Cc2ccccc2)CC1,DSM 1386,>100 µM
Clc1ccc(CC[C@H](Cn2ccnc2)Sc2c(Cl)cccc2Cl)cc1,-,6 µg/mL
CCCCCCCCCCCCO,-,135 µg/mL
Cc1ccc(Oc2nc3ccc(C)cc3cc2C2C(C#N)=C(N)Oc3c2c(=O)oc2ccc(C)cc32)cc1,MTCC 227,500 µg/mL
C[C@H]1[C@H](O)[C@@H](C)/C=C/C=C/C=C/C=C/C=C/C=C/C=C/[C@H](O[C@@H]2O[C@H](C)[C@@H](O)[C@H](N)[C@@H]2O)C[C@@H]2O[C@](O)(C[C@@H](O)C[C@@H](O)CC[C@H](O)[C@@H](O)C[C@@H](O)CC(=O)O[C@H]1C)C[C@H](O)[C@H]2C(=O)O,ATCC 10231,1.6 µg/mL
Cl.NCCS,MTCC 183,>1000 µg/mL